Pooled drug test results. Numbers come from NIAID ChemDB, via PubChem.

Common to all: enzyme or target tests; organism: HIV-1; protein: Integrase

ICn: concentration for n% inhibition.

structure	method	endpoint	value
CC(=O)N1CCC2(CC1)OCCCn1c2nc(C(=O)NCc2ccc(F)cc2-n2ncnc2C)c(O)c1=O	binding / radiometric	Ki	0.003–0.05 µM
CN1CCc2nc(C(=O)NCc3ccc(F)cc3)c(O)c(=O)n2C1=O	ELISA	IC50	<10 µM
O=C1c2c(O)c(=O)c(NS(=O)(=O)Cc3ccccc3)cn2CCN1Cc1ccc(F)c(Cl)c1	ELISA	IC50	<0.01 µM
Cc1nnc(C(=O)N2CCC3(C2)OCCn2c3nc(C(=O)NCc3ccc(F)cc3-n3ncnc3C)c(O)c2=O)o1	binding / radiometric	Ki	0.003–0.05 µM
CN(C)C(=O)C(=O)NC12CCC(N(C)C)(CC1)Cn1c2nc(C(=O)NCc2cccc(Cl)c2F)c(O)c1=O	radiometric	Ki	0.000005 µM
CN1CCn2c(nc(C(=O)NCc3ccc(F)cc3)c(O)c2=O)C(N(CC2CCCCC2)C(=O)C(=O)N(C)C)C1	ELISA	IC50	<10 µM
CC(C)c1cn(Cc2ccc(Cl)c(Cl)c2)c(=O)c2c(O)c(=O)ccn12	ELISA	IC50	<0.01 µM
Cc1ncnn1-c1cc(F)ccc1CNC(=O)c1nc2n(c(=O)c1O)CCCOC21CCN(C(=O)OCc2ccccc2)CC1	binding / radiometric	Ki	0.003–0.05 µM
O=C1c2c(O)c(=O)ccn2CCN1Cc1ccccc1Cl	ELISA	IC50	0.1–1 µM
O=C(NCc1ccc(F)cc1)c1nc2n(c(=O)c1O)CCN(Cc1ccccc1)C2	ELISA	IC50	<10 µM
Cc1cc(CNC(=O)c2nc3n(c(=O)c2O)CC2(N)CCC3(NC(=O)C(=O)N(C)C)CC2)ccc1F	radiometric	Ki	0.0000038 µM
CCOC(=O)C(=O)N1CCC2(C1)OCCn1c2nc(C(=O)NCc2ccc(F)cc2)c(O)c1=O	binding / radiometric	Ki	0.001–0.003 µM
Cc1cc(CNC(=O)c2nc3n(c(=O)c2O)CCN(C(C)C)CC3N(C)C(=O)C(=O)N(C)C)ccc1F	ELISA	IC50	<10 µM
O=C(c1ccccc1)c1cn2ccn(Cc3cccc(Cl)c3)c(=O)c2c(O)c1=O	ELISA	IC50	0.01–0.1 µM
CN(C)C(=O)C(=O)N1CCC2(CC1)OCCCn1c2nc(C(=O)NCc2ccc(F)cc2)c(O)c1=O	binding / radiometric	Ki	0.003–0.05 µM

a–b is a range or a potency band. Lines come from different laboratories, so protocols vary.